{"source": "patent EP0832971B1", "key": {"[1]": {"biological_target": "gp120, the major envelope glycoprotein of HIV-I (radioiodinated 125I-gp120; unlabeled purified gp120) (HIV-1)", "experiment": "gp120 binding, method of Smith et al., Science 238:1704 (1987)"}, "[2]": {"biological_target": "gp120, the major envelope glycoprotein of HIV-I (radioiodinated 125I-gp120; unlabeled purified gp120) (HIV-1)", "experiment": "saturation binding of 125I-gp120 in solution, immunoprecipitation with OKT4, Scatchard analysis"}}, "data": [{"substance": "CD4T, residues 1-368 only (Table 4) (from UniProt P01730 26-393) (receptor)", "values": [{"measurement": "Kd", "setting": "[1]", "value": 2.3, "unit": "nM"}]}, {"substance": "CD42γ1 immunoadheson (CD4 residues 1-180 fused to the constant region of human immunoglobulin γ1; product of pRKCD42γ1) (from UniProt P01730 26-205; P01857 1-330) (Fc fusion)", "values": [{"measurement": "Kd", "setting": "[1]", "value": 1.4, "unit": "nM"}]}, {"substance": "CD44γ1 immunoadheson (CD4 residues 1-366 fused to the constant region of human immunoglobulin γ1; product of pRKCD44γ1) (from UniProt P01730 26-391; P01857 1-330) (Fc fusion)", "values": [{"measurement": "Kd", "setting": "[1]", "value": 1.2, "unit": "nM"}]}, {"substance": "detergent solubilized intact CD4 (from UniProt P01730 26-458) (receptor)", "values": [{"measurement": "Kd", "setting": "[2]", "value": 1.3, "unit": "nM"}]}]}
